US9120787B2, “HIV replication inhibitors” (priority 2011, dated 2015)

Tests used:
[1] = tested on: peripheral blood mononuclear cells (PBMC); test: Cytotoxicity by MTS staining in PBMCs; type: cell-based; conditions: read-out: TC50 (the source's name)
Description: Cytotoxicity was assessed by MTS staining. At assay end-point, PBMC were stained with the addition of […] of the soluble tetrazolium-based dye MTS to determine cell viability and quantify compound toxicity. The plates were incubated 4 to 6 hrs at 37° C. Following incubation, the activity was assessed by reading absorbance values at 490/650 nm.

[2] = tested on: MAGI-CCR5 cells; test: Cytotoxicity by MTS staining in uninfected MAGI-CCR5 cells; type: cell-based; conditions: 48 hours, read-out: TC50 (the source's name)
Description: The anti-viral activity of dihydropyrimidines was shown by inhibition of virus replication in MAGI-CCR5 cells. MAGI-CCR5 cells are derived from HeLa-CD4-LTR-β-galactosidase cells. The cells have been engineered to express high levels of CD4 and CCR5 and contain one copy of the HIV-1 LTR promoter driving expression of the β-galactosidase gene upon HIV-1 Tat transactivation. On the day preceding the assay, the cells were plated at 1.0×10^4 cells per well and maintained at 37° C. and 5% CO2 in a humidified incubator. Total cell count and viability was visually assessed using a hemacytometer and trypan blue exclusion. Compounds were evaluated at six concentrations (triplicate wells/concentration). On the day of assay setup, compound dilutions were prepared at two-times (2×) the final concentrations. Media was decanted and wells were replenished with 50 μl of 2× compounds, followed by the addition of 50 μl of diluted virus. Identical uninfected assays were prepared for parallel cytotoxicity testing.

Maraviroc [reference compound]
CC50 [1]: > 1000 nM
CC50 [2]: > 1000 nM
